Results of unrelated studies side by side (data: NIAID ChemDB).

Shared fields: tests on isolated targets; organism: Hepatitis C virus; target: Nonstructural protein 5B; endpoint: IC50

Blank or dashed fields: not listed here.

smiles	strain	read by	result
O=C(O)c1ccc(N2C(=O)C(=Cc3ccc(-c4ccccc4)o3)SC2=S)cc1	-	-	≤1 µM
Cc1cc(SC2=C(O)CC(CCc3cc(Cl)c(N)c(Cl)c3)(C(C)C)OC2=O)c(C(C)(C)C)cc1N	-	-	10–50 µM
O=C(O)CCN1C(=O)C(=Cc2ccc(-c3cccs3)o2)SC1=S	-	-	≤1 µM
CNC(=O)c1c(-c2ccc(F)cc2)oc2cc(OC)c(OC)cc12	-	-	≤0.5 µM
COc1ccc(CCC2(C3CCCC3)CC(O)=C(Sc3n[nH]c(N)n3)C(=O)O2)cc1	-	-	1–10 µM
CNC(=O)c1c(-c2ccc(F)cc2)oc2cc(-c3ccc[nH]3)c(OC(C)C)cc12	-	-	≤0.5 µM
O=C(O)c1ccc(N2C(=O)C(=Cc3ccc(-c4c(F)c(F)nc(F)c4F)o3)SC2=S)cc1	-	-	≤1 µM
COc1c(-c2ccc3cc(NS(C)(=O)=O)ccc3c2)cc(-n2ccc(=O)[nH]c2=O)cc1C(C)(C)C	GT 4a#2	nucleotide incorporation	3.7 µM
COc1ccc(CCC2(C3CCCC3)CC(=O)C(C(=O)Cc3cccnc3)C(=O)O2)cc1	-	-	1–10 µM
CNC(=O)c1c(-c2ccc(F)cc2)oc2cc(N(C)S(C)(=O)=O)c(OCc3ccccc3OC(F)F)cc12	-	-	≤0.5 µM
O=C(O)CCN1C(=O)C(=Cc2ccc(-c3cccc(Cl)c3)o2)SC1=S	-	-	≤1 µM
CCCCN(C1=C(O)C[C@](CCc2cccc(O)c2)(C2CCCC2)OC1=O)c1ccccc1	-	-	1–10 µM
CNC(=O)c1c(-c2ccc(F)cc2)oc2cc(N(CCF)S(C)(=O)=O)c(OC)cc12	-	-	≤0.5 µM
O=C(O)CN1C(=O)C(=Cc2ccc(-c3cccc(C(F)(F)F)c3)o2)SC1=S	-	-	≤1 µM
CNC(=O)c1c(-c2ccc(F)cc2)oc2cc(-c3ccc(S(C)(=O)=O)cc3)c(OC(C)C)cc12	-	-	≤0.5 µM
CCCN(C1=C(O)CC(C2CCCC2)(C2CCCC2)OC1=O)c1cccc(N)c1	-	-	10–50 µM

ICn is the concentration giving n% inhibition. Conditions beyond the fields shown may differ between rows. Two numbers with a dash give a range or band.